Measurements taken from paper PMC7911889 (Viruses, 2021).

Molecular target: SARS-CoV-2 3CL^pro (Severe acute respiratory syndrome coronavirus 2, UniProt P0DTD1)
Format: cell-based

## CC(C)CN(C[C@@H](O)[C@H](Cc1ccccc1)NC(=O)O[C@H]1CCOC1)S(=O)(=O)c1ccc(N)cc1
  Effect on luciferase reporter activity / 3CL^pro inhibition (in words): no significant increase or decrease in luciferase activity

## COc1cccc2c1C(=O)c1c(O)c3c(c(O)c1C2=O)C[C@@](O)(C(=O)CO)C[C@@H]3O[C@H]1C[C@H](N)[C@H](O)[C@H](C)O1 [doxorubicin]
  Effect on luciferase reporter activity / 3CL^pro inhibition (in words): did not result in any significant change in luciferase reporter activity
